The list shows a part of the results, in another mix than the full data. Potency and affinity values are given separately. Activity calls are given as the source filed them.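 Rule for the calls: active = viability at or below 80% at any tested concentration, marking the compound as toxic; inactive = the rest.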

The experiment in a line: viability loss in THP-1 monocytes – THP-1 cells, cytotoxicity control for Vif-APOBEC3G degradation inhibitor project, dose response (AID 1117359). The conditions noted are these: THP-1 viability, CellTiter-Glo luminescence, 72 h; at 40 µM (top of the series). For orientation: ATP-based viability assays read luminescence as a measure of living cells.
The viability is a read-out of living cells in per cent, often relative to untreated cells. As for `Oc1ccc(/C=N/NC(=S)Nc2cccnc2)c(O)c1O`, the viability was inactive: 104%.

The record behind these values is PubChem BioAssay AID1117359 (Southern Research Institute, 2015).
